Measurements: patent US20050079180A1, “Manipulatin of oocyte maturation and male germ cell survival” (priority 2003, published 2005)

Tested on: testis
Format: in vivo, rat
Settings: co-treatment with GnRH antagonist, five days; FIG. 4A
Procedure: FIGS. 4A-D. Treatment with hCG increased INLS3 expression whereas treatment with INSL3 suppressed testis germ cell apoptosis induced by a GnRH antagonist. A) Changes in testis and other organ weights following treatment with the GnRH antagonist with or without INSL3 or hCG. Immature rats at 28 days of age were treated daily with a GnRH antagonist (AN; Antagon, 25 μg/day) with or without hCG (75 IU/day) or synthetic rat INSL3 (2 μg, twice daily) for five days before organ removal. B) Northern blot analyses of testis INSL3 mRNA levels in rats treated with the GnRH antagonist with or without hCG. C) Analysis of apoptotic DNA fragmentation in testes using 3′-end DNA labeling with the terminal transferase, followed by gel fractionation and autoradiography. D) In situ staining of apoptotic DNA fragmentation in seminiferous tubules using the TUNNEL method. Positive signals are evident in some primary spermatocytes in control animals (panel d, light arrows) whereas treatment with the GnRH antagonist (AN) led to additional signals in meiotic germ cells (panel e, heavy arrows).
Male Sprague-Dawley rats at 28 days of age were treated subcutaneously with GnRH antagonist (250 μg/kg/day) to suppress pituitary gonadotropin secretion. […] Animals were killed 5 days after initial treatment and organ weight determined. […]

“hCG: an agonist of LH; from A.P.L, Ayerst Laboratories” was tested, and the “effect on testis weight decrease caused by GnRH antagonist” value was “partially blocked”.
